This assay has as its target T1, SARS-CoV-2 spike receptor binding domain (RBD) (Acro, Arg319-Phe541, His-tag) (SARS-CoV-2, UniProt P0DTC2 319-541).
T1 construct: range 319-541
Put plainly: direct ELISA (conclusion).

B1: recombinant human full-length SP-D (hFL-SP-D) (other)
chain: AEMKTYSHRTMPSACTLVMCSSVESGLPGRDGRDGREGPRGEKGDPGLPGAAGQAGMPGQAGPVGPKGDNGSVGEPGPKGDTGPSGPPGPPGVPGPAGREGPLGKQGNIGPQGKPGPKGEAGPKGEVGAPGMQGSAGARGLAGPKGERGVPGERGVPGNTGAAGSAGAMGPQGSPGARGPPGLKGDKGIPGDKGAKGESGLPDVASLRQQVEALQGQVQHLQAAFSQYKKVELFPNGQSVGEKIFKTAGFVKPFTEAQLLCTQAGGQLASPRSAAENAALQQLVVAKNEAAFLSMTDSKTEGKFTYPTGESLVYSNWAPGEPNDDGGSEDCVEIFTNGKWNDRACGEKRLVVCEF
As for B1, the binding result is “binds”.
